A mixed list of measured activities; the numbers were collected in NIAID ChemDB.

Shared fields: target-level tests

Fold resistance has wild type as its base.

SMILES | strain or isolate | protein | tested at | read by | changes | endpoint | organism | result
O=C1C[C@@H](c2ccc(O)cc2)Oc2cc(O[C@@H]3C[C@@H](O)[C@H](O)[C@@H](CO)O3)cc(O)c21 |  | gp120 | 80 µg/mL | ELISA |  | inhibition | HIV-1 | 77%
CC[C@H]1C=CCC[C@@]2(C[C@@H]3CC[C@@H]4[C@H](C(=O)OCc5ccccc5)[C@]5(CCC[C@@H](C)O5)NC(=[N+]34)N2)O1 | NL4-3 | Nef | 5 µM | ELISA |  | inhibition | HIV-1 | 82.9%
O=NNc1ccc(S(=O)(=O)c2ccc(NN=O)cc2)cc1 |  | Integrase |  | 3′ processing |  | IC50 | HIV-2 | 20 µM
CC[C@H]1C=CCC[C@@]2(C[C@@H]3CC[C@@H]4[C@H](C(=O)OCCCCCCCCCCC(=O)N(CCC[NH3+])C[C@@H](O)CC[NH3+])[C@]5(CCC[C@@H](C)O5)NC(=[N+]34)N2)O1 | NL4-3 | Nef | 5 µM | ELISA |  | inhibition | HIV-1 | 89.5%
Cc1cc(SC2=C(O)C[C@@](CCc3ccc(N)cc3)(C(C)C)OC2=O)c(C(C)(C)C)cc1CO |  | Protease |  | HPLC / absorbance | PR-V82A | fold resistance | HIV-1 | 1.3
CC(C)CN(C[C@@H](O)[C@H](Cc1ccccc1)NC(=O)OCc1ccccc1)S(=O)(=O)c1ccc2sc(N)nc2c1 |  | Protease |  | fluorescence |  | IC50 | HIV | 0.047 µM
O=Cc1cc(S(=O)(=O)c2ccc(O)c(C=O)c2)ccc1O |  | Integrase |  | 3′ processing |  | IC50 | HIV-2 | 1.5 µM
CCC(C1=C(O)CC2(CCCCC2)OC1=O)c1ccccc1 |  | Protease |  | fluorescence |  | Ki | HIV-2 | 0.37 µM
Cc1c(O)cccc1C(=O)N[C@@H](Cc1ccccc1)[C@H](O)CN(CC(C)C)S(=O)(=O)c1ccc2nc(N)sc2c1 |  | Protease |  | fluorescence |  | IC50 | HIV | 0.002 µM
CNC(=O)[C@@H](NC(=O)[C@H](OCc1ccccc1)[C@H](O)[C@@H](O)[C@@H](OCc1ccccc1)C(=O)N[C@H]1c2ccccc2C[C@H]1O)C(C)C |  | Protease |  |  | PR-V82A I84V L90M | Ki | HIV | 0.0021 µM
CC(C)CN(C[C@@H](O)[C@H](Cc1ccccc1)NC(=O)OCc1cncs1)S(=O)(=O)c1ccc2nc(N)sc2c1 |  | Protease |  | fluorescence |  | IC50 | HIV | 0.003 µM
NOCc1c(F)cccc1Cl |  | gp120 | 0.8 µg/mL | ELISA |  | inhibition | HIV-1 | 9.2%
O=C1c2c(O)cc(O)cc2O[C@H](c2ccc(O)cc2)[C@H]1O |  | gp120 | 60 µg/mL | ELISA |  | inhibition | HIV-1 | >80%
CC(C)CN(C[C@@H](O)[C@H](Cc1ccccc1)NC(=O)OCc1ccccc1)S(=O)(=O)c1ccc2nc(N)sc2c1 |  | Protease |  | fluorescence |  | IC50 | HIV | 0.002 µM
O=C(CO)N[C@@H]([C@@H](O)[C@H](O)[C@H](O)CO)[C@@H](O)C(=O)C(=O)O | MN | gp120 | 40 µM |  |  | inhibition | HIV-1 | 34.1%
Cc1cc(SC2=C(O)C[C@@](CCc3ccc(O)cc3)(C(C)C)OC2=O)c(C(C)(C)C)cc1CO |  | Protease |  | HPLC / absorbance | PR-G48V L90M | fold resistance | HIV-1 | 18.6
C=CCOC(=O)C1=C(C)NC(N)=[N+]2[C@H](C[C@@H](O)CCCCCCOCc3ccccc3)CC[C@H]12 | NL4-3 | Nef | 5 µM | ELISA |  | inhibition | HIV-1 | 101.1%
N#CC(C#N)=NNc1ccc(S(=O)(=O)c2ccc(NN=C(C#N)C#N)cc2)cc1 |  | Integrase |  | 3′ processing |  | IC50 | HIV-2 | 38.3 µM
Cc1cn([C@@H]2O[C@H](CO[Si](C)(C)C(C)(C)C)C3(OS(=O)(=O)C=C3N)[C@H]2O[Si](C)(C)C(C)(C)C)c(=O)n(C)c1=O |  | Reverse transcriptase |  | nucleotide incorporation / radiometric | RT-P95A | IC50 | HIV | 0.9 µM
O=[N+]([O-])c1cc(S(=O)(=O)c2ccc(S)c([N+](=O)[O-])c2)ccc1S |  | Integrase |  | strand transfer |  | IC50 | HIV-2 | 2.2 µM
O=C1c2c(O)cc(O[C@@H]3C[C@@H](O)[C@H](O)[C@@H](CO)O3)cc2O[C@H](c2ccc(O)cc2)[C@H]1O |  | gp120 | 250 µg/mL | ELISA |  | inhibition | HIV-1 | 30%
COc1ccc2c(c1)N(C(=O)OC(C)C)[C@@H](CSC)C(=S)N2 |  | Reverse transcriptase |  | scintillation proximity / radiometric | RT-L100I V108I Y181I | IC50 | HIV-1 | >29 µM
Cc1cc(SC2=C(O)CC(CCc3ccc(O)cc3)(C3CCCCC3)OC2=O)c(C(C)(C)C)cc1CO |  | Protease |  | HPLC / absorbance | PR-V32I | fold resistance | HIV-1 | 17
Nc1nc2c(ncn2[C@H]2CC[C@@H](COP(=O)(O)OP(=O)(O)OP(=O)(O)O)O2)c(=O)[nH]1 |  | Reverse transcriptase |  | nucleotide incorporation / radiometric | RT-N137E | IC50 | HIV | 0.083 µM
CC(C)CN(C[C@@H](O)[C@H](Cc1ccccc1)NC(=O)OC1CCOC1)S(=O)(=O)c1ccc2nc(N)sc2c1 |  | Protease |  | fluorescence |  | IC50 | HIV | 0.002 µM
C=CCOC(=O)C1=C(C)NC2=[N+]3[C@@H](CC[C@@H]13)C[C@@H](CCCCC[C@@H](C)OCc1ccccc1)N2 | NL4-3 | Nef | 5 µM | ELISA |  | inhibition | HIV-1 | 82.7%
CC1CNCCN1S(=O)(=O)c1cccc2cnccc12 | LAV | Tat:TAR/LTR |  |  |  | Ki | HIV-1 | 6 µM
CCCCCCCCC[C@@H]1C[C@@H]2CCC3=C(C(=O)O[C@H](C)CCCCC[C@@H]4C[C@@H]5CC[C@@H]6C[C@H](C)NC(=[N+]65)N4)[C@@H](C)NC(=[N+]32)N1 | NL4-3 | Nef |  | ELISA |  | IC50 | HIV-1 | <5 µM
CC(C)=CCOc1cc(NC(=S)c2ccoc2C)ccc1Cl |  | Reverse transcriptase |  | nucleotide incorporation / radiometric | RT-N137D | IC50 | HIV | 0.02 µM
O=S(=O)(SC(Cl)(Cl)Cl)c1cccc(S(=O)(=O)c2cccc(S(=O)(=O)SC(Cl)(Cl)Cl)c2)c1 |  | Integrase |  | strand transfer |  | IC50 | HIV-2 | 40 µM
Cc1c(N)cccc1C(=O)N[C@@H](Cc1ccccc1)[C@H](O)CN(CC(C)C)S(=O)(=O)c1ccc2nc(N)sc2c1 |  | Protease |  | fluorescence |  | IC50 | HIV | 0.003 µM
O=S1(=O)N(Cc2ccc(CO)cc2)[C@H](COc2ccccc2)[C@H](O)[C@@H](O)[C@@H](COc2ccccc2)N1Cc1ccc(CO)cc1 |  | Protease |  |  | PR-V82A I84V L90M | fold resistance | HIV | 37.7
CCCCNC(=O)[C@H](N)CC[C@@H]1O[C@H](CO)[C@H](O)[C@H](O)[C@H]1O |  | gp120 | 1000 µg/mL | ELISA |  | inhibition | HIV-1 | 34%

A second listing of 4 rows from above:

Nc1nc2c(ncn2[C@H]2CC[C@@H](COP(=O)(O)OP(=O)(O)OP(=O)(O)O)O2)c(=O)[nH]1 ; protein: Reverse transcriptase ; read by: nucleotide incorporation / radiometric ; changes: RT-N137E ; endpoint: IC50 ; organism: HIV ; result: 0.083 µM
CC[C@H]1C=CCC[C@@]2(C[C@@H]3CC[C@@H]4[C@H](C(=O)OCc5ccccc5)[C@]5(CCC[C@@H](C)O5)NC(=[N+]34)N2)O1 ; strain or isolate: NL4-3 ; protein: Nef ; tested at: 5 µM ; read by: ELISA ; endpoint: inhibition ; organism: HIV-1 ; result: 82.9%
O=NNc1ccc(S(=O)(=O)c2ccc(NN=O)cc2)cc1 ; protein: Integrase ; read by: 3′ processing ; endpoint: IC50 ; organism: HIV-2 ; result: 20 µM
Cc1c(N)cccc1C(=O)N[C@@H](Cc1ccccc1)[C@H](O)CN(CC(C)C)S(=O)(=O)c1ccc2nc(N)sc2c1 ; protein: Protease ; read by: fluorescence ; endpoint: IC50 ; organism: HIV ; result: 0.003 µM

Percent inhibition refers to the dose given; in toxicity tests it is the harm to the cells. ICn is the concentration giving n% inhibition. An empty or dashed field is not shown. Conditions beyond the fields shown may differ between rows.